Results of unrelated studies side by side (data: NIAID ChemDB).

Common to all: whole-cell or culture tests; agent: HIV-1; method: cytopathic effect / XTT; measure: EC50

An empty or dashed field is not shown. ECn: concentration that inhibits the pathogen or its effect by n%. Neighbouring rows are from separate reports.

CCC(C)NC(=O)c1ccccc1SSc1ccccc1C(=O)NC(C)CC ; cell line: CEM ; value: >15 µM
Cn1cc(NC(=O)Nc2cc(C(=O)Nc3cc(C(=O)Nc4cc(S(=O)(=O)O)c5cc(S(=O)(=O)O)cc(S(=O)(=O)O)c5c4)n(C)c3)n(C)c2)cc1C(=O)Nc1cc(C(=O)Nc2cc(S(=O)(=O)O)c3cc(S(=O)(=O)O)cc(S(=O)(=O)O)c3c2)n(C)c1 ; cell line: CEM + CEM-SS ; strain or isolate: G691-2 ; value: 0.1 µM
NC(=O)c1cccc(SSc2cccc(C(N)=O)c2)c1 ; cell line: CEM ; value: 61 µM
Cn1cc(NC(=O)Nc2cc(C(=O)Nc3cc(C(=O)Nc4ccc(S(=O)(=O)O)c5cc(S(=O)(=O)O)ccc45)n(C)c3)n(C)c2)cc1C(=O)Nc1cc(C(=O)Nc2ccc(S(=O)(=O)O)c3cc(S(=O)(=O)O)ccc23)n(C)c1 ; cell line: MT-4 ; strain or isolate: DPS-181_ ; value: 4.8 µM
COc1cc(-c2ccc(N=Nc3ccc4c(S(=O)(=O)O)cc(S(=O)(=O)O)c(N)c4c3O)c(OC)c2)ccc1N=Nc1ccc2c(S(=O)(=O)O)cc(S(=O)(=O)O)c(N)c2c1O ; cell line: CEM + CEM-SS ; strain or isolate: RF ; value: 1.7 µM
CC(C)(C)O/N=C/c1cc(NC(=S)c2ccsc2)ccc1Cl ; cell line: CEM + CEM-SS ; strain or isolate: RF ; value: 0.095 µM
Cn1cc(NC(=O)Nc2cc(C(=O)Nc3cc(C(=O)Nc4ccc(P(=O)(O)O)c5cc(P(=O)(O)O)ccc45)n(C)c3)n(C)c2)cc1C(=O)Nc1cc(C(=O)Nc2ccc(P(=O)(O)O)c3cc(P(=O)(O)O)ccc23)n(C)c1 ; cell line: CEM + CEM-SS ; strain or isolate: RF ; value: 1.7 µM
CCOC(=O)c1ccc(NC(=O)c2ccccc2SSc2ccccc2C(=O)Nc2ccc(C(=O)OCC)cc2)cc1 ; cell line: CEM ; value: 9 µM
CCCc1cc(=O)oc2c3c(c4c(c12)OC(C)(C)CC4)O[C@@H](C)[C@H](C)[C@@H]3O ; cell line: CEM + CEM-SS ; strain or isolate: A17 ; mutations: RT-K103N Y181C ; value: 0.8 µM
O=C(Nc1cccc(O)c1)c1ccccc1SSc1ccccc1C(=O)Nc1cccc(O)c1 ; cell line: CEM ; value: 15 µM
Cc1cc(OC(F)(F)c2nc3ccccc3o2)cc(C)c1C ; cell line: CEM + CEM-SS ; strain or isolate: RF ; value: 13 µM
O=C(c1ccccc1SSc1ccccc1C(=O)N1CCC(O)C1)N1CCC(O)C1 ; cell line: CEM ; value: 65 µM
CC=CCOc1cc(NC(=S)c2ccoc2C)ccc1OC ; cell line: CEM + CEM-SS ; strain or isolate: NL4-3 ; mutations: RT-K101E ; value: 0.6 µM
c1ccc(SCc2nc3ccccc3o2)cc1 ; cell line: CEM + CEM-SS ; strain or isolate: RF ; value: 35.3 µM
CC(C)=CCOc1cc(NC(=S)c2ccsc2C)ccc1Cl ; cell line: AA5 ; strain or isolate: IIIB ; value: 0.009 µM
Cn1cc(NC(=O)c2cc(NC(=O)Nc3cc(C(=O)Nc4cc(C(=O)Nc5ccc6cc(S(=O)(=O)O)cc(S(=O)(=O)O)c6c5)n(C)c4)n(C)n3)nn2C)cc1C(=O)Nc1ccc2cc(S(=O)(=O)O)cc(S(=O)(=O)O)c2c1 ; cell line: CEM + CEM-SS ; strain or isolate: RF ; value: 7.9 µM
COc1cc(-c2ccc(N=Nc3ccc4c(S(=O)(=O)O)cc(S(=O)(=O)O)c(N)c4c3O)c(OC)c2)ccc1N=Nc1ccc2c(S(=O)(=O)O)cc(S(=O)(=O)O)c(N)c2c1O ; cell line: CEM + CEM-SS ; strain or isolate: MN ; value: 8.7 µM
Cc1occc1C(=S)Nc1ccc(Cl)c(C(=O)OCC2CC2)c1 ; cell line: CEM + CEM-SS ; strain or isolate: NL4-3 ; value: 0.05 µM
CC(C)=CCOc1cc(NC(=S)c2ccoc2C)ccc1Cl ; cell line: CEM + CEM-SS ; strain or isolate: NL4-3 (RT K101E) ; mutations: RT-K101E ; value: 0.04 µM
C=CCO/N=C/c1cc(NC(=S)c2ccoc2C)ccc1Cl ; cell line: CEM + CEM-SS ; strain or isolate: IIIB ; value: 0.09 µM
Cn1cc(NC(=O)Nc2cc(C(=O)Nc3cc(C(=O)Nc4ccc5c(S(=O)(=O)O)cccc5c4S(=O)(=O)O)n(C)c3)n(C)c2)cc1C(=O)Nc1cc(C(=O)Nc2ccc3c(S(=O)(=O)O)cccc3c2S(=O)(=O)O)n(C)c1 ; cell line: CEM + CEM-SS ; strain or isolate: RF ; value: 23 µM
CC(C)O/N=C/c1cc(NC(=S)OC(C)C)ccc1Cl ; cell line: CEM + CEM-SS ; strain or isolate: IIIB ; value: 0.1 µM
FC(F)(Sc1ncccn1)c1nc2ccccc2o1 ; cell line: CEM + CEM-SS ; strain or isolate: CALO(RT-T139I) ; mutations: RT-T139I ; value: 3.2 µM
CN1N=C(N)c2cn([C@@H]3O[C@H](COP(=O)(O)O)[C@@H](O)[C@H]3O)c3ncnc1c23 ; cell line: CEM + CEM-SS ; strain or isolate: 205 ; value: >2.9 µM
Cc1occc1C(=S)Nc1ccc(Cl)c(C(=O)OC(C)C)c1 ; cell line: CEM + CEM-SS ; strain or isolate: NL4-3 ; mutations: RT-V106A ; value: 0.6 µM
Cn1cc(NC(=O)Nc2cc(C(=O)Nc3cc(C(=O)Nc4ccc(S(=O)(=O)O)c5cccc(S(=O)(=O)O)c45)n(C)c3)n(C)c2)cc1C(=O)Nc1cc(C(=O)Nc2ccc(S(=O)(=O)O)c3cccc(S(=O)(=O)O)c23)n(C)c1 ; cell line: CEM + CEM-SS ; strain or isolate: RF ; value: >200 µM
O=C(NC1CC1)c1ccccc1SSc1ccccc1C(=O)NC1CC1 ; cell line: CEM ; value: 24 µM
Cc1occc1C(=S)Nc1ccc(Cl)c(/C=N/OC(C)(C)C)c1 ; cell line: CEM + CEM-SS ; strain or isolate: NL4-3 ; mutations: RT-K103N ; value: 4.8 µM

The last 2 rows once more:

structure	cell line	strain or isolate	mutations	value
O=C(NC1CC1)c1ccccc1SSc1ccccc1C(=O)NC1CC1	CEM	-	-	24 µM
Cc1occc1C(=S)Nc1ccc(Cl)c(/C=N/OC(C)(C)C)c1	CEM + CEM-SS	NL4-3	RT-K103N	4.8 µM